Measurements reported in PubChem BioAssay AID504761 (Drosophila RNAi Screening Center, 2011)
In all, the deposit lists about 22,000 reagents; below is a random part of those that have a named target and a result. In the full data, 116 (0.52%) were called active. 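Calls depend on retest data that are not deposited; infection was ranked per plate without normalising between plates; the unit of the infection score is not given.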 Raw values are not corrected between plates. Reagents against one gene are numbered here. Names joined by + are all predicted targets of the reagent. The record does not give: the amount of reagent, the time to read-out.

Purpose: 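Insect host genes that dengue virus relies on to spread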 (primary screen)
Cells: D.Mel-2 cells from Drosophila
Knock-down reagent: long dsRNA against Drosophila genes
Challenge: infection with dengue virus type 2; dose and infection time not stated
Read-out: 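Cells stained for dengue envelope protein and imaged; percent of infected cells per well on duplicate plates, ranked by infection, with stained nuclei counted for cell number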
Reading the numbers: infection score: higher = more virus-infected cells; cell count: higher = more cells in the well
Hit rule: 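Very low infection ranking in both replicate wells (chance probability at most 0.065), then a retest showing infection dropped 1.5-fold or more at p below 0.05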
Meaning of the calls: active = confirmed: knock-down lowers infection; inactive = not picked or not confirmed

Target gene | dsRNA no. | infection score, replicate 1 | infection score, replicate 2 | cell count, replicate 1 | cell count, replicate 2 | Call
NP15.6 | 1 | 2.16 | 0.6 | 5970 | 6125 | inactive
NP15.6 | 2 | 28.8 | 23.4 | 5215 | 5902 | inactive
CG2217 + CG42740 | 1 | 4.21 | 10.2 | 6557 | 6590 | inactive
VGAT | 1 | 5.38 | 3.86 | 7120 | 7018 | inactive
l(1)G0289 | 1 | 6 | 1.32 | 6648 | 6870 | inactive
l(1)G0289 | 2 | 8.66 | 18 | 1132 | 5931 | inactive
CG30385 | 1 | 1.91 | 4.32 | 5956 | 6087 | inactive
mbt | 1 | 0.85 | 2.39 | 6925 | 7102 | inactive
mbt | 2 | 4.2 | 10.9 | 6613 | 6301 | inactive
CG6688 | 1 | 5.1 | 9.83 | 6690 | 5952 | inactive
CG6688 | 2 | 9.17 | 1.81 | 5745 | 6136 | inactive
CG6236 | 1 | 16.4 | 11.7 | 6109 | 6193 | inactive
Diedel3 | 1 | 1.45 | 1 | 5743 | 5892 | inactive
CG14654 (retired record) | 1 | 1.85 | 2.84 | 6227 | 6439 | inactive
CG14654 (retired record) | 2 | 3.17 | 3.33 | 6285 | 2403 | inactive
cid | 1 | 2.43 | 3.23 | 5919 | 5603 | inactive
cid | 2 | – | – | 394 | 454 | inactive
HPS1 | 1 | 16.5 | 12 | 6054 | 6927 | inactive
CG3708 | 1 | 12 | – | 3407 | 331 | inactive
Hers | 1 | 3.84 | 2.73 | 6072 | 6192 | inactive
Hers | 2 | 3.48 | 1.67 | 5977 | 5863 | inactive
Hers | 3 | 7.47 | 5.76 | 7015 | 6681 | inactive
Dnaaf3 | 1 | 3.8 | 14.3 | 6295 | 5288 | inactive

In a second layout: 2 of the entries above.
{"Target gene":"cid","dsRNA no.":1,"infection score, replicate 1":2.43,"infection score, replicate 2":3.23,"cell count, replicate 1":5919,"cell count, replicate 2":5603,"Call":"inactive"}
{"Target gene":"cid","dsRNA no.":2,"cell count, replicate 1":394,"cell count, replicate 2":454,"Call":"inactive"}
